21 compounds from patent US20230058961A1, “SUBSTITUTED HETEROCYCLICS WITH THERAPEUTIC ACTIVITY IN HIV” (New York Blood Center, Inc., priority 2019, published 2023) can be followed below.

The data set deals with pseudovirus HIV-1 HXB2. It counts as cell-based. The conditions noted are these: selectivity index SI=CC50/IC50, TZM-bl cells.
For `CC(C)(N)C(NC(=O)c1ccc(-c2ccc(C(F)(F)F)cn2)[nH]1)c1nc(CO)cs1` (stereo not drawn) [Compound 23, N-(2-Amino-1-(4-(hydroxymethyl)thiazol-2-yl)-2-methylpropyl)-5-(5-(trifluoromethyl)pyridin-2-yl)-1H-pyrrole-2-carboxamide], the SI came to 35.
The value for `CC(C)(N)C(NC(=O)c1ccc(-c2ccc(C(F)(F)F)cn2)[nH]1)c1nc(CO)cs1` (stereo not drawn) [Compound 24, N-(2-Amino-1-(4-(hydroxymethyl)thiazol-2-yl)-2-methylpropyl)-5-(5-(trifluoromethyl)pyridin-2-yl)-1H-pyrrole-2-carboxamide] was 102.
`NCC(NC(=O)c1ccc(-c2ccc(C(F)(F)F)cn2)[nH]1)c1nc(CCO)cs1` (stereo not drawn) [Compound 25, N-(2-Amino-1-(4-(2-hydroxyethyl)thiazol-2-yl)ethyl)-5-(5-(trifluoromethyl)pyridin-2-yl)-1H-pyrrole-2-carboxamide] displayed an SI of 59.
With `NCC(NC(=O)c1ccc(-c2ccc(C(F)(F)F)cn2)[nH]1)c1nc(CCO)cs1` (stereo not drawn) [Compound 26, N-(2-Amino-1-(4-(2-hydroxyethyl)thiazol-2-yl)ethyl)-5-(5-(trifluoromethyl)pyridin-2-yl)-1H-pyrrole-2-carboxamide] the figure was 120.
With `NCC(NC(=O)c1ccc(-c2ccc(C(F)(F)F)cn2)[nH]1)c1nc(CCCO)cs1` (stereo not drawn) [Compound 27, N-(2-Amino-1-(4-(3-hydroxypropyl)thiazol-2-yl)ethyl)-5-(5-(trifluoromethyl)pyridin-2-yl)-1H-pyrrole-2-carboxamide] the figure was greater than 49.5; with `NCC(NC(=O)c1ccc(-c2ccc(C(F)(F)F)cn2)[nH]1)c1nc(CCCO)cs1` (stereo not drawn) [Compound 28, N-(2-Amino-1-(4-(3-hydroxypropyl)thiazol-2-yl)ethyl)-5-(5-(trifluoromethyl)pyridin-2-yl)-1H-pyrrole-2-carboxamide], 91.
The value for `NCC(NC(=O)c1ccc(-c2ccc(C(F)(F)F)cn2)[nH]1)c1nc(C(O)CO)cs1` (stereo not drawn) [Compound 29, N-(2-Amino-1-(4-(1,2-dihydroxyethyl)thiazol-2-yl)ethyl)-5-(5-(trifluoromethyl)pyridin-2-yl)-1H-pyrrole-2-carboxamide] was greater than 22.
The compound `NCC(NC(=O)c1ccc(-c2ccc(C(F)(F)F)cn2)[nH]1)c1nc(C(O)CO)cs1` (stereo not drawn) [Compound 30, N-(2-Amino-1-(4-(1,2-dihydroxyethyl)thiazol-2-yl)ethyl)-5-(5-(trifluoromethyl)pyridin-2-yl)-1H-pyrrole-2-carboxamide] had an SI greater than 30.
The value for `NCC(NC(=O)c1ccc(-c2ccc(C(F)(F)F)cn2)[nH]1)c1nc(CO)c(CO)s1` (stereo not drawn) [Compound 35, N-(2-Amino-1-(4,5-bis(hydroxymethyl)thiazol-2-yl)ethyl)-5-(5-(trifluoromethyl)pyridin-2-yl)-1H-pyrrole-2-carboxamide] was 63.
The value for `NCC(NC(=O)c1ccc(-c2ccc(C(F)(F)F)cn2)[nH]1)c1nccs1` (stereo not drawn) [Compound 37, N-(2-Amino-1-(thiazol-2-yl)ethyl)-5-(5-(trifluoromethyl)pyridin-2-yl)-1H-pyrrole-2-carboxamide] was 45; that for `NCC(NC(=O)c1ccc(-c2ccc(C(F)(F)F)cn2)[nH]1)c1nccs1` (stereo not drawn) [Compound 38, N-(2-Amino-1-(thiazol-2-yl)ethyl)-5-(5-(trifluoromethyl)pyridin-2-yl)-1H-pyrrole-2-carboxamide] was 78.0.
`NCC(NC(=O)c1ccc(-c2ccc(C(F)(F)F)cn2)[nH]1)c1cnc(CO)s1` (stereo not drawn) [Compound 57, N-(2-Amino-1-(2-(hydroxymethyl)thiazol-5-yl)ethyl)-5-(5-(trifluoromethyl)pyridin-2-yl)-1H-pyrrole-2-carboxamide]: the SI is given as greater than 58.
The value for `NCC(NC(=O)c1ccc(-c2ccc(Cl)cn2)[nH]1)c1cnc(CO)s1` (stereo not drawn) [Compound 60, N-(2-Amino-1-(2-(hydroxymethyl)thiazol-5-yl)ethyl)-5-(5-chloropyridin-2-yl)-1H-pyrrole-2-carboxamide] was greater than 29.4.
The value for `Cc1cc(-c2ccc(C(F)(F)F)cn2)[nH]c1C(=O)NC(CN)c1cnc(CO)s1` (stereo not drawn) [Compound 61, N-(2-Amino-1-(2-(hydroxymethyl)thiazol-5-yl)ethyl)-3-methyl-5-(5-(trifluoromethyl)pyridin-2-yl)-1H-pyrrole-2-carboxamide] was 28.3.
With `Cc1cc(-c2ccc(C(F)(F)F)cn2)[nH]c1C(=O)NC(CN)c1cnc(CO)s1` (stereo not drawn) [Compound 62, N-(2-Amino-1-(2-(hydroxymethyl)thiazol-5-yl)ethyl)-3-methyl-5-(5-(trifluoromethyl)pyridin-2-yl)-1H-pyrrole-2-carboxamide] the figure was 9.8.
`Cc1cc(-c2ccc(C(F)(F)F)cn2)[nH]c1C(=O)NC(CN)c1csc(CO)n1` (stereo not drawn) [Compound 63, N-(2-Amino-1-(2-(hydroxymethyl)thiazol-4-yl)ethyl)-3-methyl-5-(5-(trifluoromethyl)pyridin-2-yl)-1H-pyrrole-2-carboxamide] registered an SI of 30.2.
On to `Cc1cc(-c2ccc(C(F)(F)F)cn2)[nH]c1C(=O)NC(CN)c1csc(CO)n1` (stereo not drawn) [Compound 64, N-(2-Amino-1-(2-(hydroxymethyl)thiazol-4-yl)ethyl)-3-methyl-5-(5-(trifluoromethyl)pyridin-2-yl)-1H-pyrrole-2-carboxamide], for which the SI is given as 36.8.
The value for `NCC(NC(=O)c1ccc(-c2ccc(C(F)(F)F)cn2)[nH]1)c1csc(CO)n1` (stereo not drawn) [Compound 65, N-(2-Amino-1-(2-(hydroxymethyl)thiazol-4-yl)ethyl)-5-(5-(trifluoromethyl)pyridin-2-yl)-1H-pyrrole-2-carboxamide] was 52.7; that for `NCC(NC(=O)c1ccc(-c2ccc(C(F)(F)F)cn2)[nH]1)c1csc(CO)n1` (stereo not drawn) [Compound 66, N-(2-Amino-1-(2-(hydroxymethyl)thiazol-4-yl)ethyl)-5-(5-(trifluoromethyl)pyridin-2-yl)-1H-pyrrole-2-carboxamide] was 50.
The value for `NCC(NC(=O)c1ccc(-c2ccc(Cl)cn2)[nH]1)c1csc(CO)n1` (stereo not drawn) [Compound 67, N-(2-Amino-1-(2-(hydroxymethyl)thiazol-4-yl)ethyl)-5-(5-chloropyridin-2-yl)-1H-pyrrole-2-carboxamide] was greater than 13.9.
Compound `NCC(NC(=O)c1ccc(-c2ccc(Cl)cn2)[nH]1)c1csc(CO)n1` (stereo not drawn) [Compound 68, N-(2-Amino-1-(2-(hydroxymethyl)thiazol-4-yl)ethyl)-5-(5-chloropyridin-2-yl)-1H-pyrrole-2-carboxamide] displayed an SI greater than 12.9.
